Consider 57 compounds from PubChem BioAssay AID1950 (The Scripps Research Institute Molecular Screening Center, 2009).

The list shows a part of the results, in another mix than the full data. Calls of active or inactive are those of the source. No stated cut-off is given here; in the data, active means inhibition above about 28%; inactive means the rest.

The subject of the test is EBNA-1 (Epstein-Barr virus nuclear antigen 1), Human herpesvirus 4. In words: EBNA-1 DNA-binding inhibitors, primary screen, biochemical, fluorescence polarization (AID 1950). The conditions noted are these: at 14.8 µM, stronger effect = higher value. Background: In fluorescence polarisation assays a small probe gives low polarisation when free and higher when bound to something large.
The inhibition is the relative decrease from the control value, in per cent. As for `NC(=O)Nc1ccc([As](=O)(O)O)cc1`, the inhibition was inactive: -4.71%.

Regarding `O=C(O)COc1ccc([As](=O)(O)O)cc1[N+](=O)[O-]`, the inhibition is inactive: -3.32%.

Consider `Nc1ccccc1[As](=O)(O)c1ccccc1`, for which the inhibition was inactive: -8.69%.

In the case of `CS(=O)(=O)c1cc([N+](=O)[O-])c2no[n+]([O-])c2c1`, the inhibition was inactive: 4.25%.

For `O=P(Nc1nccs1)(c1ccccc1)c1nc2ccccc2s1` (configuration not stated), the inhibition is inactive: 7.14%.

On to `O=P(Nc1nccs1)(Oc1ccccc1)Oc1ccccc1`, for which the inhibition was inactive: 2.66%.

Consider `CCOP1(=S)c2c(C)nn(CCC#N)c2N=C(c2ccccc2F)N1C` (configuration not stated), for which the inhibition was inactive: -1.36%.

In the case of `CCOP(=O)(Nc1cccc2ccccc12)OCC`, the inhibition was inactive: 5.49%.

`COc1cc(C2NCCC3(OCCO3)C2(C)C)cc(OC)c1OC` (configuration not stated): the inhibition is inactive: -0.19%.

With `CCCOP(=S)(Nc1nc(N)cc(=O)[nH]1)OCCC`, the inhibition was inactive: -1.12%.

On to `Cc1ccc(NCCc2c([N+](=O)[O-])cc([N+](=O)[O-])cc2[N+](=O)[O-])cc1`, for which the inhibition was inactive: -3.01%.

Take `Nc1cccc2c([As](=O)(O)O)cccc12`: the inhibition is inactive: 7.21%.

As for `O=[As](O)(c1cccc(O)c1)c1cccc(O)c1`, the inhibition was inactive: 7.61%.

`Cc1cccc(OCC(=O)OC2CN3CCC2CC3)c1` (configuration not stated): the inhibition is inactive: 2.84%.

In the case of `CS(=O)(=O)c1ccc(Cl)c(NC(=O)COC(=O)C(O)(c2ccccc2)c2ccccc2)c1`, the inhibition is inactive: -5.75%.

For the compound `COc1cc(C(=O)NCC2(N3CCOCC3)CCCCC2)cc(Cl)c1OC(C)C`, the inhibition is inactive: -4.96%.

In the case of `O=[As](O)(O)c1cccnc1`, the inhibition is inactive: 7.58%.

As for `O=C(OC1CN2CCC1CC2)c1ccc(Cl)cc1` (configuration not stated), the inhibition was inactive: 2.75%.

For the compound `COc1ccc(N/C(=N/P(=O)(N2CCOCC2)N2CCOCC2)N2CCOCC2)cc1`, the inhibition was inactive: 6.56%.

As for `COc1cc(I)ccc1[As](=O)(O)O`, the inhibition was inactive: -0.03%.

With `COc1ccc2nc(NP(=O)(c3ccccc3)c3ccccc3)sc2c1`, the inhibition was inactive: -8.95%.

As to `Cc1cc(=O)[nH]c(N[N+](=O)[O-])n1`, the inhibition was inactive: 6.53%.

As to `O=C(OC1CN2CCC1CC2)C12CC3CC(CC(C3)C1)C2` (configuration not stated), the inhibition was inactive: 4.8%.

For `Cc1c2c(nc3ccccc13)SC(C(Cl)Cl)C2` (configuration not stated), the inhibition was inactive: 3.56%.

For `O=[N+]([O-])c1cc([N+](=O)[O-])c(-c2ccn[nH]2)s1`, the inhibition was inactive: -0.57%.

Consider `CCN(CC)C(=S)SC(NC=O)C(Cl)(Cl)Cl` (configuration not stated), for which the inhibition was inactive: -6.85%.

`CC(C)NC(=O)NP(=O)(Oc1ccccc1)Oc1ccccc1`: the inhibition is inactive: 12.1%.

`CC(C)c1ccc(OP(=O)(Nc2ccccn2)Oc2ccccc2F)cc1` (configuration not stated): the inhibition is inactive: 5.18%.

In the case of `ClCCSc1nnc(-c2cccnc2)o1`, the inhibition was inactive: 5.11%.

For the compound `Cc1ccc2nc3c(c(C)c2c1)CC(C(Cl)Cl)S3` (configuration not stated), the inhibition is inactive: -7.46%.

For the compound `Cc1ccc(OP(=O)(Nc2ccc([N+](=O)[O-])cn2)Oc2ccc(C)cc2)cc1`, the inhibition was inactive: -1.61%.

In the case of `O=[As](O)(c1ccc(O)cc1)c1ccccc1O`, the inhibition was inactive: -15.4%.

On to `C[As](=O)(O)c1cccc(C(=O)O)c1`, for which the inhibition is inactive: -6.36%.

Turning to `Cc1cc(SC(NC=O)C(Cl)(Cl)Cl)ncn1` (configuration not stated), the inhibition is inactive: -10.1%.

As for `O=P(Nc1ccccn1)(c1cccc2ccccc12)c1cccc2ccccc12`, the inhibition was inactive: -1.77%.

As to `CCOC(=O)Nc1cccc([As](=O)(O)O)c1`, the inhibition was inactive: 7.6%.

Regarding `Cc1cc(SC(NC(=O)c2ccccc2)C(Cl)(Cl)Cl)nc(C(C)C)n1` (configuration not stated), the inhibition is inactive: 2.64%.

`CCOC(=O)Nc1ccc([As](=O)(O)O)c(O)c1`: the inhibition is inactive: -13.2%.

As to `CCC(C)N(CC(C)C)C(=S)SC(NC(C)=O)C(Cl)(Cl)Cl` (configuration not stated), the inhibition was inactive: 5.9%.

In the case of `CCOC(=O)c1ccc(NC(=O)C(C)(CCl)SC)cc1` (configuration not stated), the inhibition was inactive: -0.12%.

For `O=C(OC1CN2CCC1CC2)c1cccc([N+](=O)[O-])c1` (configuration not stated), the inhibition is inactive: -3.56%.

For `O=C(Nc1ccncc1[N+](=O)[O-])c1ccc([N+](=O)[O-])cc1[N+](=O)[O-]`, the inhibition is inactive: -4.87%.

As to `O=C(COc1ccccc1)OC1CN2CCC1CC2` (configuration not stated), the inhibition was inactive: -2.52%.

On to `COP1(=S)c2c(C)nn(CCC#N)c2N=C(c2ccc(F)cc2)N1C` (configuration not stated), for which the inhibition is inactive: -3.3%.

With `CN(C)C(=O)OCCc1n(C)cc[n+]1C`, the inhibition is inactive: -5.9%.

As for `CC(C)=N/N=C(\N)N[N+](=O)[O-]`, the inhibition is inactive: -1.13%.

As for `CC1CCN(C(=O)Oc2c(Cl)cc(Cl)c3cccnc23)CC1`, the inhibition is inactive: 1.92%.

Regarding `C[N+]1=C2C=CC=CC=C2SC12C([N+](=O)[O-])=CC([N+](=O)[O-])=C[C-]2[N+](=O)[O-]` (configuration not stated), the inhibition is inactive: -1.47%.

For `Nc1ccc([As](=O)(O)c2ccc(N)cc2)cc1`, the inhibition was inactive: -1.36%.

With `CCN(/C(=N/P(=O)(N1CCOCC1)N1CCOCC1)N1CCOCC1)c1ccc(OC)cc1`, the inhibition is inactive: -3.02%.

On to `CC(=O)N1C2C3N(C(C)=O)C1C1N(C(C)=O)C(C(N1C(C)=O)N3C(C)=O)N2C(C)=O`, for which the inhibition was inactive: 0.88%.

Turning to `O=[N+]([O-])c1cccc2n[nH]nc12`, the inhibition is inactive: 3.86%.

Turning to `O=[N+]([O-])c1cc([N+](=O)[O-])c(CCNc2ccccc2)c([N+](=O)[O-])c1`, the inhibition was inactive: -8.51%.

In the case of `CCc1nc2c(n1)c1c(non1O)c1c2no[n+]1[O-]`, the inhibition was inactive: 3.57%.

For `Cc1ccc(NP(=O)(Oc2ccccc2)Oc2ccccc2)nc1`, the inhibition was inactive: -19.1%.

Turning to `COc1ccc(C2=NCC(CBr)S2)cc1` (configuration not stated), the inhibition was inactive: 5.57%.

With `O=[N+]([O-])c1cccc(NC2=NCC(CBr)S2)c1` (configuration not stated), the inhibition is inactive: -1.42%.
